Results of unrelated studies side by side (data: NIAID ChemDB).

Shared fields: host cell toxicity; cells: Huh7; endpoint: CC50

CCn: concentration that lowers growth or viability of the cells by n%.

SMILES,read by,value
COc1ccc(-c2cnc3nc(N)nc(N4CCOCC4)c3n2)cn1,,>20 µM
CC(=O)Nc1ccc(Sc2ccc(C)cc2Nc2ncnc3nc(C4CC4)ccc23)cc1,MTT,29.8 µM
CC[C@@H](C)Nc1nc(N)nc2ncc(-c3ccc(OC)c(OC)c3)nc12,ATP,>20 µM
COc1cccc2c(C(=O)N3CCC[C@H]3C(=O)Nc3ccc(/C=C/c4ccc(NC(=O)[C@@H]5CCCN5C(=O)c5nc(Cl)cc6c(OC)cccc56)cc4)cc3)nc(Cl)cc12,resazurin,>10 µM
N#Cc1c(Nc2ccnc(Cl)c2)s[nH]c1=O,,>50 µM
CC(C)(C)C(=O)OCOP(=O)(CC[C@H]1O[C@@H](n2cnc3c(N)nc(N)nc32)[C@](C)(F)[C@@H]1O)OCOC(=O)C(C)(C)C,absorbance,>10 µM
Nc1nc(N2CCOCC2)c2nc(-c3ccccc3C(F)(F)F)cnc2n1,,<10 µM
CNC(=O)c1ccc(-c2ccc3nc(N)nc(OC(C)C)c3n2)cc1Cl,,>20 µM
CCOC(=O)c1c(CSc2ccccc2)n(C)c2cc(C#N)c(O)c(CN(N(C)C)N(C)C)c12,ATP,51.6 µM
N#Cc1c(Nc2cc(Cl)nc(Cl)n2)s[nH]c1=O,,<50 µM
Cc1cccc(/C(N)=N/OC(=O)N2CCOCC2)c1,MTS,47 µM
Cc1ccc(Sc2ccc(F)cc2)c(Nc2ncnc3nc(C(C)C)ccc23)c1,MTT,4.8 µM
CCOc1nc(N)nc2ncc(-c3ccc(Cl)cc3)nc12,,<10 µM
CCOc1nc(N)nc2ccc(-c3ccc(NS(C)(=O)=O)cc3)nc12,,>20 µM
COc1ccc(-c2cnc3nc(N)nc(N4CCN(C(=O)Cc5ccc(Cl)cc5)CC4)c3n2)cc1OC,ATP,<10 µM
N/C(Cc1cccc2ccccc12)=N\OC(=O)N1CCOCC1,MTS,45.2 µM
CCOC(=O)c1c(CSc2ccccc2)n(C)c2cc(C#N)c(O)c(CN(N3CCN(CCOCCO)CC3)N3CCN(CCOCCO)CC3)c12,ATP,51.1 µM
COc1ccc(-c2cnc3nc(N)nc(N4CCN(C(=O)Nc5cccs5)CC4)c3n2)cc1OC,ATP,<10 µM
Nc1nc(N2CCOCC2)c2nc(-c3ccccc3Cl)cnc2n1,,<10 µM
N#Cc1c(Nc2ccc(S(=O)(=O)Nc3ccccc3)cc2)s[nH]c1=O,,>50 µM
Nc1nc(N2CCOCC2)c2nc(-c3cc4ccccc4o3)cnc2n1,,>20 µM
Cc1ccc(Sc2ccc(O)cc2)c(Nc2ncnc3nc(Oc4ccccc4)ncc23)c1,MTT,17.1 µM
O=C(Nc1ccc(C#Cc2ccc(NC(=O)[C@@H]3CCCN3C(=O)[C@@H](c3ccccc3)N3CCCC3)cc2)cc1)[C@@H]1CCCN1C(=O)[C@@H](c1ccccc1)N1CCCC1,resazurin,3.1 µM
CCOC(=O)c1c(COc2ccccc2)n(C)c2cc(Br)c(O)c(CN(N3CCC(CO)CC3)N3CCC(CO)CC3)c12,ATP,77.4 µM
N#Cc1c(Nc2ccccc2C(F)(F)F)s[nH]c1=O,,>50 µM
COc1ccc(-c2cnc3nc(N)nc(N4CCN(C(=O)Oc5ccc(Cl)cc5)CC4)c3n2)cc1OC,ATP,<10 µM
N#Cc1c(Nc2ccc(C(=O)O)cc2)s[nH]c1=O,,>50 µM
COc1ccc(N2CCN(c3nc(N)nc4ncc(-c5ccc(OC)c(OC)c5)nc34)CC2)cc1,ATP,>20 µM
C1=C[C@@H](c2ncc(-c3ccc(-c4ccc(-c5cnc([C@@H]6C=CCN6)[nH]5)cc4)cc3)[nH]2)NC1,ATP,46.8 µM
CCOC(=O)c1c(CSc2ccccc2)n(C)c2cc(-c3cccnc3)c3c(c12)CN(C)CO3,ATP,29.8 µM
Nc1nc(N2CCOCC2)c2nc(-c3cccc(OC(F)(F)F)c3)cnc2n1,,<10 µM
O=C(Nc1ccc(/C=C/c2ccc(NC(=O)[C@@H]3CCCN3C(=O)c3nccc4ccccc34)cc2)cc1)[C@@H]1CCCN1C(=O)c1nccc2ccccc12,resazurin,>10 µM
N/C(=N\OC(=O)N1CCOCC1)c1ccccc1,MTS,>100 µM
CC(C)(C)C(=O)OCOP(=O)(CC[C@H]1O[C@@H](n2ccc(N)nc2=O)[C@](C)(F)[C@@H]1O)OCOC(=O)C(C)(C)C,absorbance,>10 µM
O=c1ccn([C@@H]2O[C@H](CO)[C@@H](O)[C@H]2O)c(=S)[nH]1,MTS,>100 µM
COC(=O)N[C@@H](C(=O)N1CCC[C@H]1C(=O)Nc1ccc(C#Cc2ccc(NC(=O)[C@@H]3CCCN3C(=O)[C@H](NC(=O)OC)c3ccccc3)cc2)cc1)c1ccccc1,resazurin,>10 µM
Nc1nc(N2CCOCC2)c2nc(-c3cccc(F)c3F)cnc2n1,,>20 µM
CC(C)C(=O)Nc1ccc(-c2ccc3nc(N)nc(O[C@H]4CCOC4)c3n2)cc1,,>20 µM
CCOC(=O)c1c(CS(=O)(=O)c2ccccc2)n(C)c2cc(-c3cccnc3)c(O)c(CN(C)C)c12,ATP,34 µM
CCOc1nc(N)nc2ccc(-c3ccc(NC(=O)[C@H](C)N)c(F)c3)nc12,,>20 µM
Cc1ccc(Sc2ccc(F)cc2)c(Nc2ncnc3nc(C)ccc23)c1,MTT,6.1 µM
CC(C)(O)CCOc1nc(N)nc2ncc(-c3ccc(F)cc3)nc12,,>20 µM
Cc1ccc(Sc2ccc(O)cc2)c(Nc2ncnc3nc(C4CC4)ccc23)c1,MTT,17.4 µM
N/C(=N\OC(=O)N1CCOCC1)c1ccc(I)cc1,MTS,38.6 µM
CCOC(=O)c1c(CSc2ccccc2)n(C)c2cc(Br)c(O)c(CN(C)C)c12.Cl,ATP,13.6 µM
Cc1ccc(Sc2ccc(O)cc2)c(Nc2ncnc3nc(C4CCCCC4)ccc23)c1,MTT,>3.12 µM

4 of the rows above, restated:

SMILES | read by | value
Nc1nc(N2CCOCC2)c2nc(-c3ccccc3C(F)(F)F)cnc2n1 |  | <10 µM
CC[C@@H](C)Nc1nc(N)nc2ncc(-c3ccc(OC)c(OC)c3)nc12 | ATP | >20 µM
N#Cc1c(Nc2cc(Cl)nc(Cl)n2)s[nH]c1=O |  | <50 µM
Nc1nc(N2CCOCC2)c2nc(-c3ccccc3Cl)cnc2n1 |  | <10 µM

Rows are shuffled and stem from different studies. Blank or dashed fields: not listed here.